PubChem BioAssay AID624099, ICCB-Longwood | 2012

Screen: 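Host factors E2 relies on to silence an HPV18 LCR reporter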 (primary screen)
Cell system: human C33A cervical carcinoma cells (HPV-negative) stably expressing BPV1 E2 and an HPV18 LCR luciferase reporter
Knock-down reagent: siRNA pool against human genes, 40 nM
Timing: 72 h
Measured: 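Per-well luciferase luminescence, z-scored on each plate against the plate mean and SD with control wells left out, then averaged across three replicate plates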
Direction: mean z-score and z-score: higher = stronger reporter signal, weaker E2 silencing
Call rule: 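Mean z ≥ 2 together with z ≥ 2 in two or more of the three replicates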
In all, the deposit lists about 21,000 reagents; shown is an unselected part. 497 of all reagents (2.4%) count as active. 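Higher z means weaker E2 silencing; only reporter increases were scored, and knock-downs that hurt cell survival may mask genuine repressor factors.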 Unmarked entries are inactive.

RERG (GeneID 85004): mean z-score = 0.69; z-score, replicate A = 0.65; z-score, replicate B = 0.88; z-score, replicate C = 0.55
TGFBR2 (GeneID 7048): mean z-score = 0.24; z-score, replicate A = 0.44; z-score, replicate B = 0.25; z-score, replicate C = 0.04
FCGR2A (GeneID 2212): mean z-score = 0.12; z-score, replicate A = 0.16; z-score, replicate B = 0.04; z-score, replicate C = 0.15
GPR119 (GeneID 139760): mean z-score = -0.21; z-score, replicate A = 0.12; z-score, replicate B = -0.55; z-score, replicate C = -0.21
TNNC2 (GeneID 7125): mean z-score = -0.08; z-score, replicate A = -0.28; z-score, replicate B = 0.12; z-score, replicate C = -0.07
ACAP3 (GeneID 116983): mean z-score = 1.37; z-score, replicate A = 0.78; z-score, replicate B = 1.73; z-score, replicate C = 1.61
IGLJ3 (GeneID 28831): mean z-score = 1.18; z-score, replicate A = 1.25; z-score, replicate B = 1.05; z-score, replicate C = 1.22
HARS1 (GeneID 3035): mean z-score = -0.33; z-score, replicate A = -0.44; z-score, replicate B = 0.32; z-score, replicate C = -0.88
HISLA (GeneID 283587): mean z-score = -1.39; z-score, replicate A = -1.06; z-score, replicate B = -1.56; z-score, replicate C = -1.56
GLOD5 (GeneID 392465): mean z-score = -0.18; z-score, replicate A = -0.3; z-score, replicate B = 0.02; z-score, replicate C = -0.25
GNAS (GeneID 2778): mean z-score = 0.54; z-score, replicate A = 0.58; z-score, replicate B = 0.69; z-score, replicate C = 0.34
TP53 (GeneID 7157): mean z-score = -0.11; z-score, replicate A = -0.12; z-score, replicate B = -0.07; z-score, replicate C = -0.15
COPE (GeneID 11316): mean z-score = 1.37; z-score, replicate A = 1.07; z-score, replicate B = 1.27; z-score, replicate C = 1.79
SP4 (GeneID 6671): mean z-score = -0.46; z-score, replicate A = -0.42; z-score, replicate B = -0.65; z-score, replicate C = -0.32
MRPS16 (GeneID 51021): mean z-score = -0.13; z-score, replicate A = -0.21; z-score, replicate B = 0.09; z-score, replicate C = -0.26
LOC388337 (retired record) (GeneID 388337): mean z-score = 0.09; z-score, replicate A = 0.48; z-score, replicate B = -0.12; z-score, replicate C = -0.1
LOC199897 (retired record) (GeneID 199897): mean z-score = 0.04; z-score, replicate A = -0.01; z-score, replicate B = 0.04; z-score, replicate C = 0.09
RIMS3 (GeneID 9783): mean z-score = -1.63; z-score, replicate A = -1.71; z-score, replicate B = -1.73; z-score, replicate C = -1.44
NDFIP1 (GeneID 80762): mean z-score = 0.33; z-score, replicate A = 0.2; z-score, replicate B = 0.48; z-score, replicate C = 0.32
PABPC3 (GeneID 5042): mean z-score = -1.78; z-score, replicate A = -1.76; z-score, replicate B = -1.74; z-score, replicate C = -1.85
C1QTNF7 (GeneID 114905): mean z-score = 0.46; z-score, replicate A = 0.38; z-score, replicate B = 0.37; z-score, replicate C = 0.61
